What all share (test): biochemical
Test [1] has as its target HLA-DQ DQA1*02:01/DQB1*02:02 (Homo sapiens, UniProt P01909+P01920, A45G/A70V/C70K/D167G/D89A/E106A/E183D/E77G/E98D/F237L/F77L/G63E/H199R/I129T/K197E/L107V/L178F/L74F/N214S/P84L/P87L/Q57E/Q76R/R75H/S185I/S97I/T103K/T109R/T172A/T60S/V73L/V78E/V99I/Y48F/Y58L/Y62S/Y69I/Y79F). The format is binding.
Test [2] has as its target HLA-DQ DQA1*03:01/DQB1*03:01 (Homo sapiens, UniProt P01909+P01920, A209T/C70Q/DUP78-78/E183D/F237L/G63E/I129T/K197E/L178F/L74F/L98V/Q57E/Q76R/S185I/S97I/T49S/V73L). The format is binding.
For test [3], the target named is HLA-DQ DQA1*03:01/DQB1*03:02 (Homo sapiens, UniProt P01909+P01920, A209T/A45G/C70Q/D89A/DUP78-78/E183D/E77G/F237L/G63E/H199R/I129T/K197E/L178F/L74F/L98V/Q57E/Q76R/S185I/S97I/T217I/T49S/V73L/Y58L). The format is binding. Conditions: read-out: Binding capacity/IC50 (nM) DQA1*03:01 DQB1*03:02.
The target of test [4] is HLA-DQ DQA1*01:02/DQB1*06:02 (Homo sapiens, UniProt P01909+P01920, A157G/A45G/C70R/E118A/E183D/E77G/F83G/G63E/H151Q/H199R/H252R/H253Q/I129T/I235V/I88M/INS77G/K197Q/L117V/L119F/L178F/L71W/L74F/L85Q/L91A/L98M/N214S/P87R/Q116E/Q76K/R102G/R240Q/R75S/R78G/S102Y/S185I/S41F/S97I/T121G/T122I/T172A/T86R/V229M/V68A/V73E/Y34C/Y41F/Y58L). The format is binding.
Test [5] concerns the target HLA-DQ DQA1*05:01/DQB1*02:01 (Homo sapiens, UniProt P01909+P01920, A45G/A70V/D89A/E106A/E77G/E98D/H199R/L107V/N214S/P84L/P87L/T103K/T109R/T172A/T60S/V78E/V99I/Y58L/Y62S/Y69I/Y79F).
For test [6], the target named is HLA-DQ DQA1*04:01/DQB1*04:02 (Homo sapiens, UniProt P01909+P01920, A45G/E106S/E183D/E77G/E98D/H199R/I129T/K197E/L107V/L178F/L91T/P87R/P88L/R102E/S185I/S97I/T103D/T217I/V99I/Y41F/Y58G).
Test [7] concerns the target HLA-DQ DQA1*01:01/DQB1*05:01 (Homo sapiens, UniProt P01909+P01920, A157S/A45G/A70V/C70R/D89V/E106S/E118A/E183D/E77G/F83G/G63E/H151Q/H199R/H252R/H253Q/I129T/I235V/I88M/INS77G/K197Q/L107V/L117V/L119Y/L178F/L71W/L74F/L85Q/L91A/L98M/M46L/N214S/P87R/Q116E/Q256R/Q57E/Q76K/R102G/R240Q/R75S/R78G/S102Y/S185I/S41F/S97I/T103A/T109R/T121G/T122I/T172A/T86R/V148I/V68A/V73E/Y34C/Y58G/Y62H).

In test [8] the target is HLA-DQ DQA1*01:02/DQB1*05:02 (Homo sapiens, UniProt P01909+P01920, A157S/A45G/A70V/C70R/D89S/E106S/E118A/E183D/E77G/F83G/G63E/H151Q/H199R/H252R/H253Q/I129T/I235V/I88M/INS77G/K197Q/L107V/L117V/L119Y/L178F/L71W/L74F/L85Q/L91A/L98M/M46L/N214S/P87R/Q116E/Q158H/Q256R/Q76K/R102G/R240Q/R75S/R78G/S102Y/S185I/S41F/S97I/T103A/T109R/T121G/T122I/T172A/T86R/V148I/V229M/V68A/V73E/Y34C/Y58G/Y62H).

Test [9] addresses HLA-DQ DQA1*01:04/DQB1*05:03 (Homo sapiens, UniProt P01909+P01920, A157S/A221T/A45G/A70V/C70R/D25G/E106S/E118A/E183D/E77G/F83G/G63E/H151Q/H199R/H252R/H253Q/I129T/I235V/I88M/INS77G/K197Q/L107V/L117V/L119Y/L178F/L71W/L74F/L85Q/L91A/L98M/M46L/N214S/P87R/Q116E/Q256R/Q57E/Q76K/R102G/R240Q/R75S/R78G/S102Y/S185I/S41F/S97I/T103A/T109R/T121G/T122I/T172A/T86R/V148I/V68A/V73E/Y34C/Y58G/Y62H).

Test [10] addresses HLA-DQ DQA1*01:03/DQB1*06:03 (Homo sapiens, UniProt P01909+P01920, A157G/A45G/C70R/E118A/E183D/E77G/F83G/G63E/H199R/H252R/H253Q/I129T/I235V/I88M/INS77G/K197Q/L117V/L119F/L178F/L71W/L74F/L85Q/L91A/L98M/N214S/P87R/Q116E/Q76K/R102G/R240Q/R64K/R75S/R78G/S102Y/S152A/S185I/S41F/S97I/T121G/T122I/T172A/T86R/V68A/V73E/Y34C/Y48F/Y58L/Y62H).
The mark [11] stands for this setting: read-out: Binding capacity/IC50 (nM) DQA1*03:01 DQB1*03:01.
Setting [12] is: read-out: Binding capacity/IC50 (nM) DQA1*01:02 DQB1*06:02.
The mark [13] stands for this setting: read-out: Binding capacity/IC50 (nM) DQA1*02:01 DQB1*02:02.

Like-named read-outs stand apart in the source and are kept apart here.

The text below walks through data of article PMC3445454, “Broad and Cross-Clade CD4^+ T-Cell Responses Elicited by a DNA Vaccine Encoding Highly Conserved and Promiscuous HIV-1 M-Group Consensus Peptides” (PLoS ONE, 2012).

Consider `CC(C)C[C@H](NC(=O)[C@H](CO)NC(=O)[C@H](CCCNC(=N)N)NC(=O)[C@H](CC(C)C)NC(=O)[C@H](CCC(=O)O)NC(=O)[C@H](CCC(=O)O)NC(=O)[C@@H](N)CO)C(=O)N[C@@H](Cc1ccc(O)cc1)C(=O)N[C@@H](CC(N)=O)C(=O)N[C@H](C(=O)N[C@H](C(=O)N[C@@H](C)C(=O)N[C@H](C(=O)N[C@@H](CC(C)C)C(=O)N[C@@H](Cc1ccc(O)cc1)C(=O)N[C@@H](CS)C(=O)N[C@H](C(=O)N[C@@H](Cc1c[nH]cn1)C(=O)N[C@@H](CCC(N)=O)C(N)=O)C(C)C)[C@@H](C)O)C(C)C)[C@@H](C)O` [p17(72-90)], for which the IC50 is 3840 nM in test [1]; 2020 nM in test [2] (setting [11]); above 30000 nM in test [3]; 538 nM in [4] (setting [12]); 11300 nM in test [5]; 7030 nM in test [6]. Further, the IC50 worked out at 3160 nM in [7], 5520 nM in test [8], 6160 nM in [9] and 52 nM in test [10].

In the case of `CC[C@H](C)[C@H](NC(=O)[C@H](CC(=O)O)NC(=O)[C@H](CC(C)C)NC(=O)[C@@H](NC(=O)[C@H](CO)NC(=O)[C@@H](NC(=O)[C@@H]1CCCN1C(=O)[C@H](CO)NC(=O)[C@H](Cc1ccc(O)cc1)NC(=O)[C@H](CCSC)NC(=O)[C@H](CCCNC(=N)N)NC(=O)[C@@H](NC(=O)[C@@H](NC(=O)[C@H](CCCCN)NC(=O)[C@H](CC(N)=O)NC(=O)[C@@H](N)CC(C)C)[C@@H](C)CC)C(C)C)C(C)C)[C@@H](C)CC)C(N)=O` [p24(138-153)], the IC50 was 3680 nM in test [1] (setting [13]); 924 nM in test [2]; above 30000 nM in test [3]; 301 nM in test [4]; 493 nM in test [5]; 11200 nM in test [6]. For the same compound, the IC50 in [7] is 103 nM; in test [8], 3320 nM; in [9], 641 nM; in [10], 141 nM.

As for `CC[C@H](C)[C@H](NC(=O)[C@H](C)NC(=O)[C@H](CCCCN)NC(=O)[C@H](CCCCN)NC(=O)CNC(=O)[C@H](CS)NC(=O)[C@@H](NC(=O)[C@H](CCC(=O)O)NC(=O)[C@@H](NC(=O)[C@H](CC(C)C)NC(=O)[C@@H](NC(=O)[C@H](CCC(N)=O)NC(=O)[C@H](CC(=O)O)NC(=O)[C@H](Cc1ccc(O)cc1)NC(=O)[C@H](CCC(N)=O)NC(=O)[C@H](CCCNC(=N)N)NC(=O)[C@@H](NC(=O)[C@H](CCCCN)NC(=O)[C@@H](NC(=O)[C@@H](N)Cc1ccccc1)[C@@H](C)CC)C(C)C)[C@@H](C)CC)[C@@H](C)CC)[C@@H](C)CC)C(=O)NCC(=O)N[C@H](C(=O)N[C@H](C(N)=O)C(C)C)[C@@H](C)O` [protease(53-75)], the IC50 in [1] (setting [13]) was 24400 nM; in [2], 475 nM; in test [3], above 30000 nM; in test [4] (setting [12]), 6270 nM; in test [5], 4200 nM; in [6], 7130 nM. The IC50 was 83 nM in [7], 403 nM in [8], 2700 nM in test [9] and 2970 nM in test [10].

As to `CC[C@H](C)[C@H](NC(=O)[C@H](CCCCN)NC(=O)[C@@H](NC(=O)[C@@H](NC(=O)[C@H](CCCNC(=N)N)NC(=O)[C@@H](NC(=O)[C@H](C)NC(=O)[C@H](CCCCN)NC(=O)[C@H](CC(C)C)NC(=O)[C@H](CC(C)C)NC(=O)[C@H](CCC(=O)O)NC(=O)[C@H](CCC(=O)O)NC(=O)[C@@H](N)CC(=O)O)C(C)C)[C@@H](C)CC)[C@@H](C)CC)C(=O)N[C@@H](CC(C)C)C(=O)N[C@@H](Cc1ccc(O)cc1)C(=O)N[C@@H](CCC(N)=O)C(=O)N[C@@H](CO)C(=O)N[C@@H](CC(N)=O)C(=O)N1CCC[C@H]1C(N)=O` [rev(9-27)], the IC50 in [1] (setting [13]) is 7000 nM; in test [2] (setting [11]), 181 nM; in test [3] it was 24700 nM; in test [4] it was 52 nM; in test [5], 1260 nM; in [6] it was 3180 nM. Moreover, the IC50 was found to be 602 nM in test [7], 636 nM in test [8], 1230 nM in [9] and 58 nM in test [10].
